According to patent US11707504B1 (dated 2023):

System: HCoV-229E
Assay: Plaque reduction test (antiviral assay) in Vero E6 cells
Conditions: plaque reduction vs untreated virus control

Row | SMILES | Viral Inhibition % (peptide conc. 1 μg/ml) [%] | Viral Inhibition % (peptide conc. 10 μg/ml) [%] | Viral Inhibition % (peptide conc. 100 μg/ml) [%]
1 | CC[C@H](C)[C@H](NC(=O)[C@H](Cc1ccc(O)cc1)NC(=O)[C@H](CO)NC(=O)[C@H](CCC(=O)O)NC(=O)[C@H](CC(N)=O)NC(=O)[C@H](CC(C)C)NC(=O)[C@H](CCCCN)NC(=O)[C@H](CCCCN)NC(=O)[C@@H](NC(=O)[C@@H](NC(=O)[C@H](CCC(=O)O)NC(=O)[C@H](CCC(=O)O)NC(=O)[C@H](CC(C)C)NC(=O)[C@H](CO)NC(=O)[C@H](CCCNC(=N)N)NC(=O)[C@H](CCSC)NC(=O)[C@H](CCC(=O)O)NC(=O)[C@H](Cc1ccc(O)cc1)NC(=O)[C@H](CCC(=O)O)NC(=O)[C@H](CC(C)C)NC(=O)[C@H](CC(=O)O)NC(=O)[C@H](CC(C)C)NC(=O)[C@H](CC(C)C)NC(=O)[C@@H](NC(=O)[C@@H](NC(=O)[C@H](CC(N)=O)NC(=O)[C@@H](NC(=O)[C@H](CCC(N)=O)NC(=O)[C@@H](NC(=O)[C@H](CC(C)C)NC(=O)[C@@H](N)CO)[C@@H](C)O)[C@@H](C)CC)[C@@H](C)O)[C@@H](C)O)C(C)C)C(C)C)C(=O)N[C@@H](CC(=O)O)C(=O)N[C@@H](CC(C)C)C(=O)N[C@@H](CCCCN)C(=O)N[C@@H](CCC(=O)O)C(=O)N[C@@H](CC(C)C)C(=O)O | 9.4 | 40.6 | 46.8
2 | CC[C@H](C)[C@H](NC(=O)[C@H](Cc1ccc(O)cc1)NC(=O)[C@H](CO)NC(=O)[C@H](CCC(=O)O)NC(=O)[C@H](CC(N)=O)NC(=O)[C@H](CC(C)C)NC(=O)[C@H](C)NC(=O)[C@H](CCCCN)NC(=O)[C@@H](NC(=O)[C@@H](NC(=O)[C@H](CCC(N)=O)NC(=O)[C@H](CCC(N)=O)NC(=O)[C@H](CC(C)C)NC(=O)[C@H](CO)NC(=O)[C@H](CCC(=O)O)NC(=O)[C@H](CCSC)NC(=O)[C@H](CCC(=O)O)NC(=O)[C@H](Cc1ccc(O)cc1)NC(=O)[C@@H](NC(=O)[C@H](CC(C)C)NC(=O)[C@H](CC(=O)O)NC(=O)[C@H](CC(C)C)NC(=O)[C@H](CC(C)C)NC(=O)[C@@H](NC(=O)[C@H](Cc1c[nH]c2ccccc12)NC(=O)[C@H](CC(N)=O)NC(=O)[C@@H](NC(=O)[C@H](CCC(N)=O)NC(=O)[C@@H](NC(=O)[C@H](CC(C)C)NC(=O)[C@@H](N)CO)[C@@H](C)O)[C@@H](C)CC)[C@@H](C)O)[C@@H](C)O)C(C)C)C(C)C)C(=O)N[C@@H](CC(=O)O)C(=O)N[C@@H](CC(C)C)C(=O)N[C@@H](CCCCN)C(=O)N[C@@H](CCC(=O)O)C(=O)N[C@@H](CC(C)C)C(=O)O | 2.1 | 35.1 | 85.3
3 | CC[C@H](C)[C@H](NC(=O)[C@H](Cc1ccc(O)cc1)NC(=O)[C@H](CO)NC(=O)[C@H](CCC(=O)O)NC(=O)[C@H](CC(N)=O)NC(=O)[C@H](CC(C)C)NC(=O)[C@H](C)NC(=O)[C@H](CCCCN)NC(=O)[C@@H](NC(=O)[C@@H](NC(=O)[C@H](CCC(N)=O)NC(=O)[C@H](CCC(N)=O)NC(=O)[C@H](CC(C)C)NC(=O)[C@H](CO)NC(=O)[C@H](CC(C)C)NC(=O)[C@H](CCSC)NC(=O)[C@H](CCC(=O)O)NC(=O)[C@H](Cc1ccc(O)cc1)NC(=O)[C@@H](NC(=O)[C@H](CC(C)C)NC(=O)[C@H](CC(=O)O)NC(=O)[C@H](CC(C)C)NC(=O)[C@H](CC(C)C)NC(=O)[C@@H](NC(=O)[C@@H](NC(=O)[C@H](CC(N)=O)NC(=O)[C@@H](NC(=O)[C@H](CCC(N)=O)NC(=O)[C@@H](NC(=O)[C@H](CC(C)C)NC(=O)[C@@H](N)CO)[C@@H](C)O)[C@@H](C)CC)[C@@H](C)O)[C@@H](C)O)[C@@H](C)O)C(C)C)C(C)C)C(=O)N[C@@H](CC(=O)O)C(=O)N[C@@H](CC(C)C)C(=O)N[C@@H](CCCCN)C(=O)N[C@@H](CCC(=O)O)C(=O)N[C@@H](CC(C)C)C(=O)O | 13.9 | 41.7 | 58.3
